A mixed list of measured activities; the numbers were collected in NIAID ChemDB.

Common to all: whole-cell or culture tests; organism: Mycobacterium avium

Neighbouring rows are from separate reports. Percent inhibition refers to the dose given; in toxicity tests it is the harm to the cells. Blank or dashed fields: not listed here.

O=c1oc2ccccc2c(=O)n1-c1ccc(Br)cc1 ; strain: CNCTC MY330/88 ; read-out: MIC ; value: 31 µM
O=c1[nH]c(=O)n([C@H]2C[C@H](O)[C@@H](CO)O2)cc1CCO ; strain: ATCC 25291 ; dose: 50 µg/mL ; read-out: inhibition ; value: 0%
Clc1ccc2c(c1)nc1cc(Nc3ccccc3)c(=NC3CCCCC3)cc-1n2-c1ccccc1 ; strain: ATCC ; read-out: MIC ; value: 0.5 µg/mL
CCCCOc1cccc(NC(=O)OCCN(C)C)c1 ; strain: MY330/88 ; read-out: MIC ; value: 62.5 µM
O=c1[nH]c(=O)n([C@@H]2O[C@H](CO)[C@@H](O)[C@H]2F)cc1F ; strain: ATCC 25291 ; dose: 50 µg/mL ; read-out: inhibition ; value: 0%
Cc1nc2ccc(F)cn2c1C(=O)NCc1ccc(N2CCN(c3ccc(C(F)(F)F)cn3)CC2)c(C(F)(F)F)c1 ; dose: 0.42 µM ; read-out: inhibition ; method: fluorescence ; value: 85%
Cc1ccc2oc(=O)n(-c3ccccc3)c(=O)c2c1 ; strain: CNCTC MY330/88 ; read-out: MIC ; value: 32 µM
CCc1nc2cc(F)ccn2c1C(=O)NCc1ccc(N2CCN(c3ccc(OC(F)(F)C(F)(F)F)cc3)[C@@H](C)C2)c(F)c1.Cl ; dose: 0.003 µM ; read-out: inhibition ; method: fluorescence ; value: 85%
O=c1[nH]c(=O)n([C@H]2O[C@@H](CO)[C@H](O)[C@@H]2O)cc1Br ; strain: ATCC 25291 ; dose: 50 µg/mL ; read-out: inhibition ; value: 0%
Cc1cn2c(C(=O)NCc3ccc(N4CCC(c5ccc(OC(F)(F)F)cc5)CC4)c(F)c3)c(C)nc2s1.Cl ; dose: 0.26 µM ; read-out: inhibition ; method: fluorescence ; value: 85%
O=c1oc2ccccc2c(=O)n1-c1cccc(Cl)c1 ; strain: CNCTC MY330/88 ; read-out: MIC ; value: 31 µM
Cc1ccc2nc(C)c(C(=O)NCc3ccc(N4CCN(c5ccc(OC(F)(F)F)cc5)[C@@H](C)C4)c(F)c3)n2c1 ; dose: 0.0022 µM ; read-out: inhibition ; method: fluorescence ; value: 85%
Cc1ccc2c(=O)n(-c3cccc(Cl)c3)c(=O)oc2c1 ; strain: CNCTC MY330/88 ; read-out: MIC ; value: 16 µM
Cc1nc2ccc(Cl)cn2c1C(=O)NCc1ccc(N2CCC(c3ccc(OC(F)(F)F)cc3)CC2)cc1 ; dose: 0.012 µM ; read-out: inhibition ; method: fluorescence ; value: 85%
Cc1cn([C@H]2C[C@H](F)[C@@H](CO)O2)c(=O)[nH]c1=O ; strain: ATCC 25291 ; dose: 50 µg/mL ; read-out: inhibition ; value: 0%

Repeating the final 2 entries:

structure,strain,dose,read-out,method,value
Cc1nc2ccc(Cl)cn2c1C(=O)NCc1ccc(N2CCC(c3ccc(OC(F)(F)F)cc3)CC2)cc1,-,0.012 µM,inhibition,fluorescence,85%
Cc1cn([C@H]2C[C@H](F)[C@@H](CO)O2)c(=O)[nH]c1=O,ATCC 25291,50 µg/mL,inhibition,-,0%